Measured values from several laboratories, pooled; numbers as filed in NIAID ChemDB.

Shared fields: toxicity to cultured cells; cells: 2.2.15; read-out: CC50

CCn: concentration that lowers growth or viability of the cells by n%. Lines come from different laboratories, so protocols vary.

{"SMILES": "O=c1[nH]c(=O)n([C@H]2O[C@@H](CO)[C@H](O)[C@H]2F)cc1Br", "value": ">200 µM"}
{"SMILES": "Nc1ncnc2c1ncn2[C@H]1C[C@@H](O)[C@H](O)[C@@H]1O", "value": "466 µg/mL"}
{"SMILES": "Nc1nc(F)c2ncn(/C=C3/CC3(CO)CO)c2n1", "value": "31.3 µM"}
{"SMILES": "Nc1ncnc2c1ncn2O[C@@H]1CS[C@@H](CO)O1", "value": ">100 µg/mL"}
{"SMILES": "Nc1ncnc2c1ncn2[C@@H]1C=C[C@H](CO)O1", "value": "200 µM"}
{"SMILES": "COC(=O)[C@H](C)NP(=O)(OCC1C/C1=C\\n1cnc2c(N)ncnc21)Oc1ccccc1", "value": "4.5 µM"}
{"SMILES": "Nc1nc2c(ncn2COCCO)c(=O)[nH]1", "value": "680 µM"}
{"SMILES": "Nc1ncnc2c1ncn2[C@H]1C[C@]12C[C@H]2CO", "value": ">100 µM"}
{"SMILES": "CCOC(=O)c1c(CS(=O)c2ccccc2)n(C)c2cc(Br)c(O)c(CN(C)C)c12", "value": "96.23 µg/mL"}
{"SMILES": "Nc1nc(=O)n([C@H]2O[C@@H](CO)[C@H](O)[C@H]2F)cc1Br", "value": ">200 µM"}
{"SMILES": "C=C1[C@H](CO)[C@@H](O)C[C@@H]1n1cnc2c(=O)[nH]c(N)nc21", "value": "30 µM"}
{"SMILES": "OC[C@H]1O[C@H](On2cnc3c(Cl)ncnc32)CS1", "value": ">100 µg/mL"}
{"SMILES": "CCCCCCCCCCCCCCCCOCCCOP(=O)(O)CO[C@H](CO)Cn1cnc2c(N)ncnc21", "value": ">300 µM"}
{"SMILES": "O=c1[nH]cnc2c1ncn2O[C@H]1CS[C@@H](CO)O1", "value": ">100 µg/mL"}
{"SMILES": "Nc1nc(N)c2ncn([C@H]3O[C@@H](CO)[C@H](O)[C@H]3F)c2n1", "value": ">200 µM"}
{"SMILES": "CCOC(=O)c1c(CS(=O)c2cccc(Cl)c2)n(C)c2cc(Br)c(O)c(CN3CCOCC3)c12", "value": "289 µg/mL"}
{"SMILES": "CCCCSc1nnc(CS(=O)(=O)c2ccccc2)o1", "value": ">1.5 µM"}
{"SMILES": "O=C(N/C(C(=O)N1CCCCC1)=C(/Cl)c1ccccc1)c1ccccc1", "value": ">81 µM"}
{"SMILES": "N=c1nc(N)c2ncn([C@@H]3O[C@H](CO)[C@@H](O)[C@H]3O)c2c(N)n1", "value": "501 µM"}
{"SMILES": "Nc1nc(=O)n([C@H]2O[C@@H](CO)[C@H](O)[C@H]2F)cc1I", "value": ">200 µM"}
{"SMILES": "CCC(c1nnc(SCCN2CCN(c3ccccc3OC)CC2)o1)S(=O)(=O)c1ccccc1", "value": ">40 µM"}
{"SMILES": "CCOC(=O)c1c(CS(=O)c2ccccc2)n(C2CC2)c2cc(Br)c(O)c(CN=C(N)N)c12", "value": "111 µg/mL"}
{"SMILES": "CCC(c1nnc(SCCN2CCN(c3ncccn3)CC2)o1)S(=O)(=O)c1ccccc1", "value": ">10 µM"}
{"SMILES": "Cc1ccc(C(=O)Nc2ncc(Cl)s2)c(O)c1", "value": ">100 µM"}
{"SMILES": "CCc1cn([C@H]2O[C@@H](CO)[C@H](O)[C@H]2F)c(=O)[nH]c1=O", "value": ">200 µM"}
{"SMILES": "COC(=O)[C@H](C)NP(=O)(OC[C@H]1C/C1=C/n1cnc2c(N)nc(N)nc21)Oc1ccccc1", "value": "45 µM"}
{"SMILES": "CC(c1n[nH]c(=S)o1)S(=O)(=O)c1ccccc1", "value": ">7.5 µM"}
{"SMILES": "CCOC(=O)c1c(CS(=O)c2ccc(F)cc2)n(C)c2cc(Br)c(O)c(CN=C(N)N)c12", "value": "125 µg/mL"}
{"SMILES": "OC[C@H]1O[C@@H](On2cnc3c(Cl)ncnc32)CS1", "value": ">100 µg/mL"}
{"SMILES": "Nc1ncnc2c1ncn2[C@@H]1C=C(CCO)[C@@H](O)[C@H]1O", "value": "1213 µM"}
{"SMILES": "COc1ncnc2c1ncn2O[C@H]1CO[C@@H](CO)O1", "value": ">100 µg/mL"}
{"SMILES": "COC(=O)C(Cc1c[nH]c2ccccc12)NP(=O)(O)OCC1C/C1=C/n1cnc2c(N)ncnc21", "value": "91 µM"}
{"SMILES": "CCCCCCCCCCCCCCCCCCOCCOP(=O)(O)CO[C@H](CO)Cn1cnc2c(N)ncnc21", "value": ">300 µM"}
{"SMILES": "COc1ncnc2c1ncn2O[C@@H]1CS[C@@H](CO)O1", "value": ">100 µg/mL"}

A second listing of 4 rows from above:

SMILES,value
OC[C@H]1O[C@@H](On2cnc3c(Cl)ncnc32)CS1,>100 µg/mL
COC(=O)[C@H](C)NP(=O)(OCC1C/C1=C\n1cnc2c(N)ncnc21)Oc1ccccc1,4.5 µM
O=C(N/C(C(=O)N1CCCCC1)=C(/Cl)c1ccccc1)c1ccccc1,>81 µM
COc1ncnc2c1ncn2O[C@H]1CO[C@@H](CO)O1,>100 µg/mL